Anti-infective test results gathered from many reports (values: NIAID ChemDB through PubChem).

Common to all: whole-cell or culture tests; agent: Herpes simplex virus 2; endpoint: EC50

An empty or dashed field is not shown. Rows are shuffled and stem from different studies. ECn is the concentration giving n% inhibition of infection, replication or growth.

{"SMILES": "Nc1ncnc2c1ncn2[C@@H]1C[C@H](CO)[C@@H](O)[C@@H]1O", "read by": "plaque count", "strain or isolate": "G-FIAU-C1", "cells": "VERO", "value": "39 µM"}
{"SMILES": "COc1ccc2nc3n[nH]c(C)c3c(Cl)c2c1", "read by": "plaque count", "cells": "FS-85", "value": "0.9 µg/mL"}
{"SMILES": "Nc1nc2c(ncn2COC(CO)CO)c(=O)[nH]1", "read by": "cytopathic effect", "strain or isolate": "G", "cells": "HEL", "value": "0.016 µM"}
{"SMILES": "Nc1nc(=O)n([C@@H]2O[C@H](CO)[C@@H](O)[C@@H]2F)cc1I", "read by": "plaque count", "strain or isolate": "G-FIAU-C1", "cells": "VERO", "value": "29 µM"}
{"SMILES": "Cn1cc(C(=O)NCc2ccc(Cl)cc2)c(=O)c2cc(CN3CCOCC3)ccc21", "read by": "plaque count", "strain or isolate": "186-M1", "cells": "VERO", "value": ">20 µM"}
{"SMILES": "Nc1nc2c(ncn2CCCC(CO)CO)c(=O)[nH]1", "read by": "plaque count", "strain or isolate": "91075", "cells": "SIRC", "value": "1.4 µM"}
{"SMILES": "O=C(O)P(=O)(O)O", "read by": "cytopathic effect", "strain or isolate": "HS-47 (TK+)", "cells": "HEL", "value": "71 µM"}
{"SMILES": "O=c1[nH]c(=O)n([C@H]2C[C@H](O)[C@@H](CO)O2)cc1I", "read by": "cytopathic effect", "strain or isolate": "LYONS", "cells": "PRK", "value": "0.2 µg/mL"}
{"SMILES": "CCOC(=O)c1c([N+](=O)[O-])c(-c2ccccc2)n(COCCO)c1C", "read by": "plaque count", "cells": "VERO", "value": ">300 µM"}
{"SMILES": "CCCc1cn([C@@H]2O[C@H](COP(=O)(O)O)[C@@H](O)[C@H]2O)c(=O)nc1N", "strain or isolate": "LYONS", "value": ">400 µg/mL"}
{"SMILES": "O=C(NCc1ccc(Cl)cc1)c1cn2c3c(cc(CN4CCOCC4)cc3c1=O)OC(c1cccnc1)C2", "read by": "plaque count", "strain or isolate": "Jensen (wild type)", "cells": "HFF", "value": "12.8 µM"}
{"SMILES": "CCCCCCCCCCCCOCCCOP1(=O)CO[C@@H](Cn2ccc(N)nc2=O)CO1", "read by": "plaque count", "strain or isolate": "G", "cells": "HFF", "value": ">1 µM"}
{"SMILES": "Cn1cc(C(=O)NCc2ccc(Cl)cc2)c(=O)c2cc(CN3CCOCC3)ccc21", "read by": "plaque count", "strain or isolate": "L6191429 ACV resistant", "cells": "HFF", "value": "2.3 µM"}
{"SMILES": "O=c1[nH]c(=O)n([C@H]2C[C@H](O)[C@@H](COP(=O)(O)O)O2)cc1/C=C/c1ccccc1", "read by": "cytopathic effect", "strain or isolate": "G", "cells": "PRK", "value": "40 µg/mL"}
{"SMILES": "CC(C)c1cn([C@@H]2O[C@H](COP(=O)(O)O)[C@@H](O)[C@H]2O)c(=O)nc1N", "strain or isolate": "196", "value": ">400 µg/mL"}
{"SMILES": "Nc1nc(Cl)c2ncn(COCCO)c2n1", "read by": "cytopathic effect", "cells": "PRK", "value": "20 µg/mL"}
{"SMILES": "Cc1cn([C@@H]2O[C@H](CO)[C@@H](O)[C@@H]2O)c(=O)[nH]c1=O", "read by": "plaque count", "strain or isolate": "UW-268", "cells": "HELF", "value": "0.52 µg/mL"}
{"SMILES": "CCCCCCCCc1cn([C@@H]2O[C@H](COP(=O)(O)O)[C@@H](O)[C@H]2O)c(=O)nc1N", "strain or isolate": "G", "value": ">400 µg/mL"}
{"SMILES": "CCCCCCCCCCCCCCCCOP(=O)(O)CO[C@H](CO)Cn1ccc(N)nc1=O", "read by": "plaque count", "strain or isolate": "MS", "cells": "HFF", "value": "0.2 µM"}
{"SMILES": "O=c1[nH]c(=O)n([C@H]2C[C@H](O)[C@@H](CO)O2)cc1CCCl", "read by": "cytopathic effect", "strain or isolate": "LYONS", "cells": "PRK", "value": "0.55 µg/mL"}
{"SMILES": "CCCCCCCC/C=C/CCCCCCCC(=O)O", "read by": "cytopathic effect", "strain or isolate": "HS-47 (TK+)", "cells": "HEL", "value": ">100 µM"}
{"SMILES": "O=c1[nH]c(=O)n(COCCO)cc1[N+](=O)[O-]", "read by": "cytopathic effect", "cells": "PRK", "value": ">400 µg/mL"}
{"SMILES": "Cc1cn([C@@H]2O[C@H](CO)[C@H]2CO)c(=O)[nH]c1=O", "read by": "plaque count", "strain or isolate": "G", "cells": "HFF", "value": "0.88 µg/mL"}
{"SMILES": "[N-]=[N+]=Nc1c(-c2ccccc2)c(-c2ccccc2)n(COCCO)c1-c1ccccc1", "read by": "plaque count", "cells": "VERO", "value": ">65 µM"}
{"SMILES": "CCCCCCCC/C=C\\CCCCCCCOCCCOP(=O)(O)CO[C@H](CO)Cn1ccc(N)nc1=O", "read by": "plaque count", "strain or isolate": "MS", "cells": "HFF", "value": "0.007 µM"}
{"SMILES": "O=c1[nH]c(=O)n(COCCO)cc1I", "read by": "cytopathic effect", "cells": "PRK", "value": ">400 µg/mL"}
{"SMILES": "CCCCCCCCCCCCCCCCOP1(=O)CO[C@@H](Cn2ccc(N)nc2=O)CO1", "read by": "plaque count", "strain or isolate": "G", "cells": "HFF", "value": ">1 µM"}
{"SMILES": "Nc1nc2c(ncn2CC[C@@H](O)CO)c(=O)[nH]1", "read by": "plaque count", "strain or isolate": "91075", "cells": "SIRC", "value": "0.9 µM"}
{"SMILES": "Nc1nc2c(ncn2C[C@]2(CO)C[C@H]2CO)c(=O)[nH]1", "read by": "plaque count", "strain or isolate": "186", "cells": "HEL", "value": "0.24 µg/mL"}
{"SMILES": "N#Cc1c(N)c(-c2ccccc2)n(COCCO)c1-c1ccccc1", "read by": "plaque count", "cells": "VERO", "value": ">300 µM"}
{"SMILES": "OC[C@H]1O[C@@H](c2cc(/C=C/I)c(F)cc2F)C[C@@H]1O", "read by": "cytopathic effect", "strain or isolate": "LYONS", "cells": "E6SM", "value": ">400 µg/mL"}
{"SMILES": "O=[N+]([O-])c1c(-c2ccccc2)c(-c2ccccc2)n(COCCO)c1-c1ccccc1", "read by": "plaque count", "cells": "VERO", "value": "40 µM"}
{"SMILES": "O=c1[nH]c(=O)n([C@@H]2O[C@H](CO)[C@@H](O)[C@@H]2F)cc1I", "read by": "plaque count", "strain or isolate": "G-FAU-C2", "cells": "VERO", "value": "29 µM"}
{"SMILES": "O=C(O)P(=O)(O)O", "read by": "plaque count", "strain or isolate": "Heeter", "cells": "MEF", "value": "22.5 µg/mL"}
{"SMILES": "Nc1nc(=O)n(C2CC(O)C(CO)O2)cc1CCCl", "read by": "cytopathic effect", "strain or isolate": "196", "cells": "PRK", "value": "8.5 µg/mL"}
{"SMILES": "O=c1[nH]c(=O)n([C@@H]2O[C@H](CO)[C@@H](O)[C@@H]2O)cc1/C=C/I", "read by": "plaque count", "strain or isolate": "UW-268", "cells": "HELF", "value": "4.2 µg/mL"}
{"SMILES": "Nc1ncnc2c1ncn2[C@@H]1O[C@H](CO)[C@@H](O)[C@H]1OP(=O)(O)OC[C@H]1O[C@@H](n2cnc3c(N)ncnc32)[C@H](OP(=O)(O)OC[C@H]2O[C@@H](n3cc(F)c(=O)[nH]c3=O)C[C@@H]2O)[C@@H]1O", "read by": "cytopathic effect", "strain or isolate": "LYONS", "cells": "PRK", "value": ">100 µg/mL"}
{"SMILES": "OC[C@H]1O[C@@H](c2cc(C#CBr)c(F)cc2F)C[C@@H]1O", "read by": "cytopathic effect", "strain or isolate": "LYONS", "cells": "E6SM", "value": ">400 µg/mL"}
{"SMILES": "CCc1cn([C@H]2C[C@H](O)[C@@H](CO)O2)c(=O)[nH]c1=O", "read by": "cytopathic effect", "strain or isolate": "LYONS", "cells": "PRK", "value": "2 µg/mL"}
{"SMILES": "Nc1nc2c(ncn2COCCOP(=O)(O)O[C@@H]2[C@H](O)[C@@H](COP(=O)(O)O[C@@H]3[C@H](O)[C@@H](CO)O[C@H]3n3cnc4c(N)ncnc43)O[C@H]2n2cnc3c(N)ncnc32)c(=O)[nH]1", "read by": "cytopathic effect", "strain or isolate": "G", "cells": "PRK", "value": "0.2 µg/mL"}
{"SMILES": "Nc1nc2c(ncn2CCCCO)c(=O)[nH]1", "read by": "plaque count", "strain or isolate": "72", "cells": "VERO", "value": "14 µM"}
{"SMILES": "CCc1cn([C@@H]2O[C@H](COP(=O)(O)O)[C@@H](O)[C@H]2O)c(=O)nc1N", "strain or isolate": "G", "value": ">400 µg/mL"}
{"SMILES": "Nc1nc2c(ncn2C/C=C\\CO)c(=O)[nH]1", "read by": "plaque count", "strain or isolate": "B4327", "cells": "VERO", "value": "3.7 µM"}
{"SMILES": "O=c1[nH]c(=O)n(C2CC(O)C(CO)O2)cc1CCCCl", "read by": "cytopathic effect", "strain or isolate": "G", "cells": "PRK", "value": "8 µg/mL"}
{"SMILES": "O=c1[nH]c(=O)n([C@H]2C[C@H](O)[C@@H](CO)O2)cc1/C=C/Br", "read by": "plaque count", "strain or isolate": "HG-52", "cells": "HELF", "value": "5.8 µg/mL"}
{"SMILES": "CCc1cc([C@H]2C[C@H](O)[C@@H](CO)O2)c(F)cc1F", "read by": "cytopathic effect", "strain or isolate": "G", "cells": "E6SM", "value": ">400 µg/mL"}
{"SMILES": "CCc1cn([C@H]2C[C@H](O)[C@@H](CO)O2)c(N)nc1=O", "read by": "cytopathic effect", "strain or isolate": "196", "cells": "PRK", "value": ">400 µg/mL"}
{"SMILES": "Nc1nc2c(ncn2COCCO)c(=O)[nH]1", "read by": "cytopathic effect", "strain or isolate": "F66556 (acyclovir-resistant)", "cells": "HFF", "value": ">50 µg/mL"}
{"SMILES": "O=c1[nH]c(=O)n([C@H]2C[C@H](O)[C@@H](CO)O2)cc1/C=C/Br", "read by": "plaque count", "strain or isolate": "MS", "cells": "VERO", "value": "5.8 µM"}
{"SMILES": "CCCCCCCC/C=C\\CCCCCCCCOCCOP(=O)(O)CO[C@H](CO)Cn1ccc(N)nc1=O", "read by": "plaque count", "strain or isolate": "SR", "cells": "HFF", "value": "0.07 µM"}
{"SMILES": "O=C(O)P(=O)(O)O", "read by": "plaque count", "strain or isolate": "G-FIAU-C1", "cells": "VERO", "value": "19 µM"}
{"SMILES": "O=c1[nH]c(=O)n([C@H]2C[C@H](O)[C@@H](CO)O2)cc1I", "read by": "plaque count", "strain or isolate": "MS", "cells": "VERO", "value": "5 µM"}
{"SMILES": "CCCCCCCCCCCCCCCCCOC[C@H](COP1(=O)CO[C@@H](Cn2ccc(N)nc2=O)CO1)OCc1ccccc1", "read by": "plaque count", "strain or isolate": "MS", "cells": "HFF", "value": "0.2 µM"}
{"SMILES": "CCCCCCc1cn([C@@H]2OC3COP(=O)(O)OC3[C@H]2O)c(=O)nc1N", "strain or isolate": "G", "value": ">400 µg/mL"}
{"SMILES": "Nc1nc2c(nc(N)n2COCCO)c(=O)[nH]1", "read by": "cytopathic effect", "cells": "PRK", "value": "0.3 µg/mL"}
{"SMILES": "Cc1cn([C@@H]2O[C@H](CO)[C@@H](O)[C@@H]2F)c(=O)[nH]c1=O", "read by": "plaque count", "strain or isolate": "G", "cells": "VERO", "value": "0.033 µM"}
{"SMILES": "O=c1[nH]c(=O)n([C@H]2C[C@H](O)[C@@H](CO)O2)cc1I", "read by": "plaque count", "strain or isolate": "HG-52", "cells": "HELF", "value": "6.2 µg/mL"}

A second listing of 3 rows from above:

SMILES,read by,strain or isolate,cells,value
O=[N+]([O-])c1c(-c2ccccc2)c(-c2ccccc2)n(COCCO)c1-c1ccccc1,plaque count,-,VERO,40 µM
O=C(NCc1ccc(Cl)cc1)c1cn2c3c(cc(CN4CCOCC4)cc3c1=O)OC(c1cccnc1)C2,plaque count,Jensen (wild type),HFF,12.8 µM
O=C(O)P(=O)(O)O,cytopathic effect,HS-47 (TK+),HEL,71 µM